Reference: PMC12345230, “Sugar phosphate-mediated inhibition of peptidoglycan precursor synthesis” (mBio, 2025)

Protein sequences, listed by entry. Tags and fused reporters are not part of them. Lines headed by an entry give the natural chain unless they say otherwise; changes in a name come on top.
UniProt Q9KNH7: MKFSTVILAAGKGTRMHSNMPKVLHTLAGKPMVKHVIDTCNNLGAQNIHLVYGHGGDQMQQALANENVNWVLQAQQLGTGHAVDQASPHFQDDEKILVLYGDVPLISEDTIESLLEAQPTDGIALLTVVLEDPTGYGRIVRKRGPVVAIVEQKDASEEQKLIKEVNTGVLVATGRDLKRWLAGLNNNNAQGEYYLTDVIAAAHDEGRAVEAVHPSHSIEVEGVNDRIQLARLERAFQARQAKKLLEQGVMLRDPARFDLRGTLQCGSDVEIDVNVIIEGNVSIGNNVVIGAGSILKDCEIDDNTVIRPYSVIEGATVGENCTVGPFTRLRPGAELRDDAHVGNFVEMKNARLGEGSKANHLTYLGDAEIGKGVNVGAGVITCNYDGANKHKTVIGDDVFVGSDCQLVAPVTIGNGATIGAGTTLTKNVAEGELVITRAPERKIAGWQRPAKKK

Target: GlmU (GlmU VC, vc2762) (Vibrio cholerae, UniProt Q9KNH7)
Test: LC-MS of UDP-GlcNAc and GlcNAc-1P formed
Type: biochemical
Conditions: 5 mM GlcN-1P, 5 mM UTP, 5 mM acetyl-CoA, 2 µM GlmU, MgCl2, Tris-HCl pH 7.5, 30 °C, 30 min; G1P 0-250 mM; acetyltransferase site, likely competitive with GlcN-1P

For `O=P(O)(O)O[C@H]1O[C@H](CO)[C@@H](O)[C@H](O)[C@H]1O` [G1P, glucose-1-phosphate], the “LC-MS of UDP-GlcNAc and GlcNAc-1P formed” value was “increasing concentrations of G1P, but not G6P”.
